ChEMBL document CHEMBL1667755, “2-hydroxyisoquinoline-1,3(2H,4H)-diones as inhibitors of HIV-1 integrase and reverse transcriptase RNase H domain: influence of the alkylation of position 4” (Eur J Med Chem, 2011)

System: Human immunodeficiency virus 1
Assay: Selectivity ratio of IC50 for recombinant HIV-1 reverse transcriptase RNase H domain to IC50 for HIV-1 integrase

Ratio IC50 | Structure (SMILES)
4.5 | CCC1C(=O)N(O)C(=O)c2ccccc21 (configuration not stated)
0.4 | O=c1c2ccccc2c(Cc2ccccc2)c(O)n1O
0.52 | CC(C)C1C(=O)N(O)C(=O)c2ccccc21 (configuration not stated)
23.5 | Cc1ccc(CC2C(=O)N(O)C(=O)c3ccccc32)cc1 (configuration not stated)
0.3 | CCCCC1C(=O)N(O)C(=O)c2ccccc21 (configuration not stated)
3.3 | CCCCCCC1C(=O)N(O)C(=O)c2ccccc21 (configuration not stated)
25.7 | O=C1c2ccccc2C(CCCc2ccccc2)C(=O)N1O (configuration not stated)
0.2 | CCCCCCc1c(O)n(O)c(=O)c2ccccc12
2.2 | CCCC1C(=O)N(O)C(=O)c2ccccc21 (configuration not stated)
24.9 | CCCCCC1C(=O)N(O)C(=O)c2ccccc21 (configuration not stated)
1.8 | O=C1c2ccccc2C(Cc2ccc(C(F)(F)F)cc2)C(=O)N1O (configuration not stated)
11.8 | CC1C(=O)N(O)C(=O)c2ccccc21 (configuration not stated)
